In the data set the test system is GlnR + RNAP holoenzyme. Briefly: EMSA. For orientation: Mobility shift assays separate free from complexed probe on a gel.

Construct, isoform or probe ends are uncertain for at least one entry. At least one verdict rests on a figure or table, not on a statement of the authors.

With “ACCGTGCCTTCGTCACGGCGGCGAAACAACGAGGGGCTTCCACCGAAACCGCGCTGCGTCAATGTCGTGGCGCATAACCGGCCCACCCCTCACCGCCCGCCCGCCAGGCACGTACGAAGGAAGGATTGGTATGTGGTATATTCGTACGTGCC (double strand) [amtB4 DNA]”, the binding result is recorded as “binds”.

For the origin of these results see publication doi:10.1101/2023.01.09.523197.
